The text below walks through data of ChEMBL document CHEMBL4229395, “Photoactivated 2,3-distyrylindoles kill multi-drug resistant bacteria” (Bioorg Med Chem Lett, 2018).

The subject of this test is Staphylococcus aureus. Briefly: Disruption of cell membrane in methicillin-resistant Staphylococcus aureus ATCC BAA-44 in presence of light by propidium iodide staining-based assay.

The source made the active and inactive calls. No cut-off for these calls is given here.

With `O=[As]c1ccccc1` (stereo unspecified), the result was Active.
